The values that follow come from patent publication US10029984B2, “Mono- or di-substituted indole derivatives as dengue viral replication inhibitors” (Janssen Pharmaceuticals, Inc., priority 2015, dated 2018).

Holding throughout (type): cell-based, Dengue virus
One data set relates to DENV-3 strain H87. Description: Tetravalent RT-qPCR assay Protocol A, serotype 3. To be noted: RT-qPCR serotype 3 H87. The procedure: (§1) The antiviral activity of the compounds of the invention was tested against DENV-1 strain TC974#666 (NCPV; Table 6), DENV-2 strain 16681 (Table 7), DENV-3 strain H87 (NCPV; Table 8) and DENV-4 strains H241 (NCPV; Table 9) in a RT-qPCR assay. Therefore, Vero cells were infected with either DENV-1, or -2, or -3, or -4 in the presence or absence of test compounds. At day 3 post-infection, the cells were lysed and cell lysates were used to prepare cDNA of both a viral target (the 3′UTR of DENV; table 2) and a cellular reference gene (β-actin, table 2). Subsequently, a duplex real time PCR was performed on a Lightcycler480 instrument. The generated Cp value is inversely proportional to the amount of RNA expression of these targets. Inhibition of DENV replication by a test compound result in a shift of Cp's for the 3′UTR gene. On the other hand, if a test compound is toxic to the cells, a similar effect on β-actin expression will be observed. The comparative ΔΔCp method is used to calculate EC50, which is based on the relative gene expression of the target gene (3′UTR) normalized with the cellular housekeeping gene (β-actin).
(§2) The culture medium consisted of minimal essential medium supplemented with 2% of heat-inactivated fetal calf serum, 0.04% gentamycin (50 mg/mL) and 2 mM of L-glutamine. Vero cells, obtained from ECACC, were suspended in culture medium and 75 μL/well was added in 96-well plates (10000 cells/well), which already contain the antiviral compounds. Typically, these plates contain a 4-fold serial dilution of 9 dilution steps of the test compound at 200 times the final concentration in 100% DMSO (500 nL; final concentration range: 25 μM-0.00038 μM). In addition, each plate contains wells which are assigned as virus controls (containing cells and virus in the absence of compound) and cell controls (containing cells in the absence of virus and compound). Once the cells were added in the plates, the plates were incubated in a fully humidified incubator (37° C., 5% CO2) until the next day. Then, DENV-1 strain TC974#666 at an MOI of 0.6, DENV-2 strain 16681 at an MOI of 0.01, DENV-3 strain H87 at an MOI of 1.0 and DENV-4 strains H241 at an MOI of 0.2 and SG/06K2270DK1/2005 at an MOI of 0.16, were added. Therefore, 25 μL of virus suspension was added to all the wells containing test compound and to the wells assigned as virus control. In parallel, 25 μL of culture medium was added to the cell controls. Next, the plates were incubated for 3 days in a fully humidified incubator (37° C., 5% CO2). After 3 days, the supernatant was removed from the wells and the cells were washed twice with ice-cold PBS (˜100 μL). The cell pellets within the 96-well plates were stored at −80° C. for at least 1 day. Next, RNA was extracted using the Cells-to-CT™ lysis kit, according to the manufacture's guideline (Applied Biosystems). The cell lysates can be stored at −80° C. or immediately used in the reverse transcription step.
(§3) In preparation of the reverse transcription step, mix A (table 3A) was prepared and 7.57 μL/well was dispensed in a 96-well plate. After addition of 5 μL of the cell lysates, a five minute denaturation step at 75° C. was performed (table 3B). Afterwards, 7.43 μL of mix B was added (table 3C) and the reverse transcription step was initiated (table 3D) to generate cDNA.
(§4) Finally, a RT-qPCR mix was prepared, mix C (table 4A), dispensed in 96-well LightCycler qPCR plates to which 3 μL of cDNA was added and the qPCR was performed according to the conditions in table 4B on a LightCycler 480. Using the LightCycler software and an in-house LIMS system, dose response curves for each compound were calculated and the half maximal effective concentration (EC50) and the half maximal cytotoxic concentration (CC50) were determined.

The subject of another data set is DENV-1 strain TC974#666. Description: Tetravalent RT-qPCR assay Protocol A, serotype 1. As to conditions: RT-qPCR serotype 1 TC974#666. The protocol:
as §1, §2, §3, §4
On the technique in general: Real-time PCR tracks product formation cycle by cycle.

The subject of another data set is DENV-4 strains H241. Description: Tetravalent RT-qPCR assay Protocol A, serotype 4. As to conditions: RT-qPCR serotype 4 H241. The procedure: as §1, §2, §3, §4
The next data set concerns DENV-2 strain 16681. Description: Tetravalent RT-qPCR assay Protocol A, serotype 2. To be noted: RT-qPCR serotype 2 16681. The procedure:
as §1, §2, §3, §4

In another data set the test system is DENV-2 16681 strain. The data set is described as follows: DENV-2 antiviral assay (eGFP-labeled virus in Vero cells). To be noted: SI=CC50/EC50, DENV-2 antiviral assay. The gist of the method:
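Vero cells were pre-plated with compound overnight, then infected with eGFP-labeled DENV-2 16681 at MOI 0.5 and incubated 3 days at 37 °C. eGFP fluorescence read by automated microscopy; 9-point 4-fold dilutions (25 μM–0.00038 μM final) in quadruplicate, EC50 by linear interpolation versus virus and cell controls.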

As for `COc1cc(NC(C(=O)c2c[nH]c3c(C)cc(F)cc23)c2ccc(F)cc2OC)cc(S(C)(=O)=O)c1` (single isomer, unassigned) [Enantiomer 8A, 2-(4-fluoro-2-methoxyphenyl)-1-(5-fluoro-7-methyl-1H-indol-3-yl)-2-((3-methoxy-5-(methylsulfonyl)phenyl)amino)ethanone], the SI with DENV-3 strain H87 is given as 48; in the data set on DENV-1 strain TC974#666 it was 644; in the data set on DENV-4 strains H241, 14; in the data set on DENV-2 strain 16681, 4191; with DENV-2 16681 strain (listed as 8A*), 5071.

`COc1cc(NC(C(=O)c2c[nH]c3cc(C)c(F)cc23)c2ccc(F)cc2OC)cc(S(C)(=O)=O)c1` (single isomer, unassigned) [Enantiomer 9A, 2-(4-fluoro-2-methoxyphenyl)-1-(5-fluoro-6-methyl-1H-indol-3-yl)-2-((3-methoxy-5-(methylsulfonyl)phenyl)amino)ethanone]: the SI is on record as 34 in the data set on DENV-3 strain H87; 402 in the data set on DENV-1 strain TC974#666; 14 in the data set on DENV-4 strains H241; 4693 in the data set on DENV-2 strain 16681; 4398 with DENV-2 16681 strain (listed as 9A*).

As to `COc1cc(NC(C(=O)c2c[nH]c3cc(OC)c(C)cc23)c2ccc(F)cc2OC)cc(S(C)(=O)=O)c1` (single isomer, unassigned) [Enantiomer 10B, 2-(4-fluoro-2-methoxyphenyl)-2-((3-methoxy-5-(methylsulfonyl)phenyl)amino)-1-(6-methoxy-5-methyl-1H-indol-3-yl)ethanone], the SI in the data set with DENV-3 strain H87 came to 45; with DENV-1 strain TC974#666 it was 921; in the data set with DENV-4 strains H241, 26; in the data set with DENV-2 strain 16681, 6630; in the data set with DENV-2 16681 strain (listed as 10B*) it was 6770.

Turning to `COc1cc(NC(C(=O)c2c[nH]c3cc(OC)c(F)cc23)c2ccc(F)cc2OC)cc(S(C)(=O)=O)c1` (single isomer, unassigned) [Enantiomer 11A, 2-(4-fluoro-2-methoxyphenyl)-1-(5-fluoro-6-methoxy-1H-indol-3-yl)-2-((3-methoxy-5-(methylsulfonyl)phenyl)amino)ethanone], the SI is on record as 52 in the data set on DENV-3 strain H87; 402 with DENV-1 strain TC974#666; 16 in the data set on DENV-4 strains H241; 4543 in the data set with DENV-2 strain 16681; 6248 with DENV-2 16681 strain (listed as 11A*).

Consider `COc1cc(NC(C(=O)c2c[nH]c3c(Cl)c(OC)ccc23)c2ccc(F)cc2OC)cc(S(C)(=O)=O)c1` (single isomer, unassigned) [Enantiomer 12A, 1-(7-chloro-6-methoxy-1H-indol-3-yl)-2-(4-fluoro-2-methoxyphenyl)-2-((3-methoxy-5-(methylsulfonyl)phenyl)amino)ethanone], for which the SI in the data set with DENV-3 strain H87 was 76; in the data set on DENV-1 strain TC974#666, above 870; in the data set with DENV-4 strains H241, above 111; in the data set with DENV-2 strain 16681, above 42176; with DENV-2 16681 strain (listed as 12A*), above 36121.

Turning to `COc1cc(NC(C(=O)c2c[nH]c3cc(F)c(C)cc23)c2ccc(F)cc2OC)cc(S(C)(=O)=O)c1` (single isomer, unassigned) [Enantiomer 14A, 2-(4-fluoro-2-methoxyphenyl)-1-(6-fluoro-5-methyl-1H-indol-3-yl)-2-((3-methoxy-5-(methylsulfonyl)phenyl)amino)ethanone], the SI is 241 in the data set with DENV-3 strain H87; 1682 in the data set on DENV-1 strain TC974#666; 27 in the data set on DENV-4 strains H241; 4710 in the data set on DENV-2 strain 16681; 8101 in the data set with DENV-2 16681 strain (listed as 14A*).

Consider `COc1cc(NC(C(=O)c2c[nH]c3cc(OC)c(Cl)cc23)c2ccc(F)cc2OC)cc(S(C)(=O)=O)c1` (single isomer, unassigned) [Enantiomer 16A, 1-(5-chloro-6-methoxy-1H-indol-3-yl)-2-(4-fluoro-2-methoxyphenyl)-2-((3-methoxy-5-(methylsulfonyl)phenyl)amino)ethanone], for which the SI in the data set on DENV-3 strain H87 is 164; in the data set on DENV-1 strain TC974#666, 970; with DENV-4 strains H241, 38; in the data set with DENV-2 strain 16681 it was 19958; in the data set on DENV-2 16681 strain (listed as 16A*), 8049.

Take `COc1cc(NC(C(=O)c2c[nH]c3ccc(C(F)(F)F)cc23)c2ccc(F)cc2OC)cc(S(C)(=O)=O)c1` (single isomer, unassigned) [Enantiomer 17B, 2-(4-fluoro-2-methoxyphenyl)-2-((3-methoxy-5-(methylsulfonyl)phenyl)amino)-1-(5-(trifluoromethyl)-1H-indol-3-yl)ethanone]: the SI in the data set with DENV-3 strain H87 is recorded as 272; with DENV-1 strain TC974#666, 2960; in the data set with DENV-4 strains H241 it was 91; in the data set with DENV-2 strain 16681, 21074; in the data set with DENV-2 16681 strain (listed as 17B*) it was above 27559.

As for `COc1cc(NC(C(=O)c2c[nH]c3ccc(OC(F)(F)F)cc23)c2ccc(F)cc2OC)cc(S(C)(=O)=O)c1` (single isomer, unassigned) [Enantiomer 18A, 2-(4-fluoro-2-methoxyphenyl)-2-((3-methoxy-5-(methylsulfonyl)phenyl)amino)-1-(5-(trifluoromethoxy)-1H-indol-3-yl)ethanone], the SI in the data set with DENV-3 strain H87 was 333; in the data set on DENV-1 strain TC974#666, 7331; in the data set with DENV-4 strains H241, 130; with DENV-2 strain 16681, 20747; in the data set on DENV-2 16681 strain (listed as 18A*), above 28953.
